Compound potency records, mixed from different reports. Data source: NIAID ChemDB in PubChem.

Shared fields: tests in culture; species: HIV-1; cell line: MT-4; endpoint: EC50

An empty or dashed field is not shown. ECn: concentration that inhibits the pathogen or its effect by n%. Neighbouring rows are from separate reports.

SMILES,strain,mutations,method,result
CC(C)(C)NC(=O)[C@@H]1CN(Cc2cccnc2)CCN1C[C@H](C[C@@H](Cc1ccccc1)C(=O)N[C@H]1c2ccccc2C[C@H]1OC(=O)CCCCOc1ccc(C[C@H](NC(=O)OC(C)(C)C)C(=O)O)cc1)OC(=O)CCCCOc1ccc(C[C@H](NC(=O)OC(C)(C)C)C(=O)O)cc1,IIIB,-,cytopathic effect / MTT,>1 µM
Cc1cn([C@H]2C[C@H](N=[N+]=[N-])[C@@H](COP(=O)(O)C(=O)NCC[N+](C)(C)C)O2)c(=O)[nH]c1=O,GKV-4046,-,p24,4.35 µM
Cc1ccc2sn(/N=C/c3ccc(F)cc3)c(=O)c2c1,-,Y181C,MTT,>15 µM
O=c1[nH]c(=O)n([C@H]2C=C(CO)CO2)cc1I,-,-,-,>100 µg/mL
CNc1nc2ccc(S(=O)(=O)N(CC(C)C)C[C@@H](O)[C@H](Cc3ccccc3)NC(=O)O[C@H]3CO[C@H]4OCC[C@H]43)cc2s1,F,PR-L10F M46I M71V I84V,cytopathic effect / MTT,0.0019 µM
O=C1C=C[C@H](n2ccc(=O)n(C(=O)c3ccccc3)c2=O)CC1,NL4-3,-,MTT,>10.1 µg/mL
CN1CCn2c3ccccc3c3c2c1c(C#N)c(=O)n3-c1ccc([N+](=O)[O-])cc1,LAI,-,cytopathic effect / MTT,1.88 µM
CCCCCCCC/C=C\CCCCCCCC(=O)OCC(COC(=O)CCCCCCC/C=C\CCCCCCCC)OC(=O)CCC(=O)O[C@@H]1Cc2ccccc2[C@@H]1NC(=O)[C@H](Cc1ccccc1)C[C@H](O)CN1CCN(Cc2cccnc2)C[C@H]1C(=O)NC(C)(C)C,IIIB,-,cytopathic effect / MTT,6.9 µM
CCN=c1scc(-c2cc(OC)ccc2OC)n1/N=C(\C)c1ccco1,IIIB,-,MTT,>60 µg/mL
Cc1c(OC(=O)CCCCOc2ccc(C[C@H](NC(=O)OC(C)(C)C)C(=O)O)cc2)cccc1C(=O)N[C@@H](CSc1ccccc1)[C@@H](CN1C[C@H]2CCCC[C@H]2C[C@H]1C(=O)NC(C)(C)C)OC(=O)CCCCOc1ccc(C[C@H](NC(=O)OC(C)(C)C)C(=O)O)cc1,IIIB,-,cytopathic effect / MTT,4.7 µM
NC(=O)c1c(F)cccc1Nc1nc(-c2ccccn2)nc2ccccc12,NL4-3,-,ELISA,<5 µM
CCCCCCNC(=O)P(=O)(O)OC[C@H]1O[C@@H](n2cc(C)c(=O)[nH]c2=O)C[C@@H]1N=[N+]=[N-],GKV-4046,-,p24,0.11 µM
CCCCCCCCCCCCCCCC(=O)OCC(COC(=O)CCCCCCCCCCCCCCC)OC(=O)CCC(=O)O[C@@H](C[C@@H](Cc1ccccc1)C(=O)N[C@H]1c2ccccc2C[C@H]1OC(=O)CCC(=O)OC(COC(=O)CCCCCCCCCCCCCCC)COC(=O)CCCCCCCCCCCCCCC)CN1CCN(Cc2cccnc2)C[C@H]1C(=O)NC(C)(C)C,IIIB,-,cytopathic effect / MTT,>10 µM
O=C1C=C[C@@H](n2cnc3c(Cl)ncnc32)CC1,NL4-3,-,MTT,>0.5 µg/mL
Cc1c(-c2c([C@H](OC(C)(C)C)C(=O)O)c(C(F)(F)F)c3c(c2C(F)(F)F)CN(C(=O)c2cccc(F)c2)C3)cc(F)c2c1CCCO2,-,-,luciferase,0.004 µM
Fc1cc(Nc2nc(Nc3cc(F)c(F)c(F)c3)c3cc4c(cc3n2)OCCO4)cc(F)c1F,NL4-3,-,ELISA,<5 µM
O=C(N[C@@H](Cc1ccccc1)C(=O)N1CCC(=O)C1Sc1ccccc1)c1cccnc1,-,-,syncytia,1 µM
O=C(c1ccccc1)n1c(=O)ccn([C@H]2C=CC3(CC2)O[C@H](c2ccccc2)[C@@H](c2ccccc2)O3)c1=O,NL4-3,-,MTT,>25 µg/mL
O=c1c2ccccc2sn1/N=C/c1cccc(F)c1,-,Y181C,MTT,>15 µM
Cc1cn([C@H]2C=C(CO)CO2)c(=O)[nH]c1=O,-,-,-,>100 µg/mL
COc1ncnc(NS(=O)(=O)c2ccc(N=C3C(=O)N(CN4CCCC4)c4ccc(C)cc43)cc2)c1OC,LAI,-,cytopathic effect / MTT,>22.6 µg/mL
Cc1nc2ccccc2c(-c2cc(F)c3c(c2C)CCCO3)c1[C@H](OC(C)(C)C)C(=O)O,NL4-3,E92Q/N155H,luminescence,0.016 µM
CC(C)CN(C[C@@H](O)[C@H](Cc1ccccc1)NC(=O)O[C@H]1CO[C@H]2OCC[C@H]21)S(=O)(=O)c1ccc2nc(N)sc2c1,LAI,-,cytopathic effect / MTT,0.007 µM
Cc1cn([C@H]2C[C@H](N=[N+]=[N-])[C@@H](COP(=O)(O)C(Cl)(Cl)Cl)O2)c(=O)[nH]c1=O,GKV-4046,-,p24,0.45 µM
CN(C)c1nc(-c2cccnc2)nc2ccccc12,NL4-3,-,ELISA,>10 µM
Cc1cn([C@H]2C=C(CO)CS2)c(=O)[nH]c1=O,-,-,-,>100 µg/mL
O=c1c2ccccc2sn1/N=C/c1ccc([N+](=O)[O-])cc1[N+](=O)[O-],-,EFV-resistant (K103 V179D P225H),MTT,>100 µM
CCN(CC)CC1Cn2c3ccccc3c3c2c(c(C#N)c(=O)n3-c2ccc([N+](=O)[O-])cc2)O1,LAI,-,cytopathic effect / MTT,0.37 µM
CC1(C)CC=C(c2cn(-c3nccc(C(=O)NC4CCC(N5CC6CCC(C5)O6)CC4)n3)c3ccc(F)c([C@H](OC(C)(C)C)C(=O)O)c23)CC1,NL4-3,T174I,luminescence,>2.228 µM
CC(C)CN(C[C@@H](O)[C@H](Cc1ccccc1)NC(=O)OC1CCOC1)S(=O)(=O)c1ccc2nc(N)sc2c1,LAI,-,cytopathic effect / MTT,0.004 µM
CC(C)(C)OC(=O)N[C@@H](Cc1ccc(OCc2ccccc2)cc1)C(=O)N1CCC(=O)[C@@H]1Sc1ccccc1,-,-,syncytia,>10 µM
COc1ncnc(NS(=O)(=O)c2ccc(N=C3C(=O)N(CN(C)C)c4ccccc43)cc2)c1OC,LAI,-,cytopathic effect / MTT,>1 µg/mL
CNc1nc2ccc(S(=O)(=O)N(CC(C)C)C[C@@H](O)[C@H](Cc3ccccc3)NC(=O)COc3c(C)cc(N)cc3C)cc2s1,LAI,-,cytopathic effect / MTT,0.003 µM
COc1ncnc(NS(=O)(=O)c2ccc(N=C3C(=O)N(CN4CCOCC4)c4ccccc43)cc2)c1OC,LAI,-,cytopathic effect / MTT,>1 µg/mL
O=c1[nH]c(=O)n([C@H]2C=C(CO)CO2)cc1F,-,-,-,>100 µg/mL
COc1ncnc(NS(=O)(=O)c2ccc(N=C3C(=O)N(CN4CCOCC4)c4ccc(C)cc43)cc2)c1OC,LAI,-,cytopathic effect / MTT,>8.9 µg/mL
N#Cc1cn([C@H]2C[C@H](F)[C@@H](CO)O2)c(=O)[nH]c1=O,-,-,-,50 µM
Cc1ccc2sn(/N=C/c3ccccc3[N+](=O)[O-])c(=O)c2c1,-,-,MTT,>100 µM
N#Cc1c2c3c(c4ccccc4n3CCN2)n(-c2ccc([N+](=O)[O-])cc2)c1=O,LAI,-,cytopathic effect / MTT,3.05 µM
CCn1cc(C(=O)O)c(=O)c2cc(F)c(N3CCN(c4ccccc4OC)CC3)c(OC(F)F)c21,NDK,-,cytopathic effect / MTT,0.2 µM
Cc1c(-c2c(C3CC3)c3c(c(C4CC4)c2[C@H](OC(C)(C)C)C(=O)O)CN(C(=O)c2cccc(F)c2)C3)cc(F)c2c1CCCO2,-,-,luciferase,0.145 µM
COc1ccc(C[C@H](NC(=O)OC(C)(C)C)C(=O)N2CCC(=O)[C@H]2Sc2ccccc2)cc1,-,-,syncytia,>50 µM
CC(C)CN(C[C@@H](O)[C@H](Cc1ccccc1)NC(=O)O[C@H]1CCOC1)S(=O)(=O)c1ccc(N)cc1,IIIB,-,p24,<0.08 µM
Cc1ccc2sn(/N=C/c3ccccc3Cl)c(=O)c2c1,-,Y181C,MTT,>100 µM
Fc1cc(F)c(Nc2nc(-c3cccnc3)nc3ccccc23)cc1Br,NL4-3,-,ELISA,15 µM
O=C(c1ccccc1)n1c(=O)ccn([C@@H]2C=C[C@@H](O)CC2)c1=O,NL4-3,-,MTT,>25 µg/mL
CC(C)C[C@H](NC(=O)OC(C)(C)C)C(=O)O[C@H](CN1C[C@H]2CCCC[C@H]2C[C@H]1C(=O)NC(C)(C)C)[C@H](Cc1ccccc1)NC(=O)[C@H](CC(N)=O)NC(=O)c1ccc2ccccc2n1,IIIB,-,cytopathic effect / MTT,0.485 µM
CCc1nc(NCN2C(=O)C(=Nc3ccc(S(=O)(=O)Nc4ncnc(OC)c4OC)cc3)c3cc(C)ccc32)nc(N)c1-c1ccc(Cl)cc1,LAI,-,cytopathic effect / MTT,>8 µg/mL
CC(C)(C)OC(=O)N1C2C3C4N(C(=O)OC(C)(C)C)C5C(C1C5(CO)[C@H]3c1ccccc1)[C@@H](c1ccccc1)C24CO,IIIB,-,cytopathic effect / MTT,>0.125 µM
CCCCCCCC/C=C\CCCCCCCC(=O)O[C@H](CN1C[C@H]2CCCC[C@H]2C[C@H]1C(=O)NC(C)(C)C)[C@H](Cc1ccccc1)NC(=O)[C@H](CC(N)=O)NC(=O)c1ccc2ccccc2n1,IIIB,-,cytopathic effect / MTT,2.7 µM
Cc1cc(Nc2nc(-c3cccnc3)nc3ccccc23)c(Cl)cc1F,NL4-3,-,ELISA,10 µM

For reference, 3 entries again:

| SMILES | strain | mutations | method | result |
|---|---|---|---|---|
| O=C(N[C@@H](Cc1ccccc1)C(=O)N1CCC(=O)C1Sc1ccccc1)c1cccnc1 | - | - | syncytia | 1 µM |
| CCn1cc(C(=O)O)c(=O)c2cc(F)c(N3CCN(c4ccccc4OC)CC3)c(OC(F)F)c21 | NDK | - | cytopathic effect / MTT | 0.2 µM |
| Cc1c(-c2c([C@H](OC(C)(C)C)C(=O)O)c(C(F)(F)F)c3c(c2C(F)(F)F)CN(C(=O)c2cccc(F)c2)C3)cc(F)c2c1CCCO2 | - | - | luciferase | 0.004 µM |